Pooled drug test results. Numbers come from NIAID ChemDB, via PubChem.

Shared fields: target-level tests; organism: Pneumocystis carinii; protein: DHFR; endpoint: IC50

ICn is the concentration giving n% inhibition. Conditions beyond the fields shown may differ between rows.

smiles | value
Nc1nc(N)c2nc(CSc3ccccc3)cnc2n1 | 9.5 µM
COc1cc(C(=O)N[C@@H](CCC(=O)O)C(=O)O)ccc1N(C)Cc1cnc2nc(N)nc(N)c2n1 | 0.00049 µM
O=[N+]([O-])c1ccc(-c2cc(Cl)c3cc(S(=O)(=O)F)ccc3n2)cc1 | ~150 µM
CC1(C)N=C(N)N=C(N)N1c1cccc(OCCCOc2ccc(N)cc2)c1 | 0.17 µM
Cc1c(CNc2ccc(Cl)c(C(=O)NC(CC(=O)O)C(=O)O)c2)ccc2nc(N)nc(N)c12 | 0.0054 µM
C=C(C)c1c(OCC)cc(Cc2cnc(N)nc2N)cc1OCC | 2.5 µM
COc1ccc(OC)c(CN2CCc3nc(N)nc(N)c3C2)c1 | 3.3 µM
CC1(C)N=C(N)N=C(N)N1c1cccc(OCc2cccc(N)c2)c1 | 1.4 µM
Nc1nc(N)c2cc(NC3c4ccccc4CCc4ccccc43)ccc2n1 | 0.51 µM
CN(Cc1cnc2nc(N)nc(N)c2n1)c1ccc(C(=O)N[C@@H](CCC(=O)O)C(=O)O)cc1Br | 0.00109 µM
COc1cc(-c2nc3nc(N)nc(N)c3[nH]2)cc(OC)c1O | >68 µM
CN(Cc1cnc2nc(N)nc(N)c2n1)c1ccc(C(=O)NC(CCC(=O)NC(CCC(=O)O)C(=O)O)C(=O)O)cc1 | 0.0002 µM
COc1ccc(NCc2cnc3nc(N)nc(N)c3c2C)c2ccccc12 | 8.2 µM
O=S(=O)(O)c1cc(O)c(N=Nc2cccc3ccc(O)cc23)c2ccccc12 | 80 µM
CC1(C)N=C(N)N=C(N)N1c1ccc(OCC(=O)Nc2cccc(S(=O)(=O)F)c2)cc1 | 1 µM
COc1cc(CCN2CCc3nc(N)nc(N)c3C2)cc(OC)c1OC | 30 µM
CC1(C)N=C(N)N=C(N)N1c1cccc(CCCCc2ccc(Cl)c(Cl)c2)c1 | 0.36 µM
CN(Cc1cnc2nc(N)nc(N)c2n1)c1c(F)cc(C(=O)N[C@H](CCC(=O)O)C(=O)O)cc1F | 0.00051 µM
c1ccc(Oc2nc(Oc3ccccc3)nc(Oc3ccccc3)n2)cc1 | ~500 µM
Nc1nc(N)c2nc(CNc3ccc(C(=O)N[C@@H](CC(=O)O)C(=O)O)cc3)cnc2n1 | 0.028 µM
COc1ccc(C(=O)c2cc(OC)c(OC)c(OC)c2)cc1OC | 42 µM
Nc1nc(N)c2[nH]c(-c3c(Cl)cccc3Cl)nc2n1 | >11 µM
O=C(O)c1c(Cl)c(Cl)c(Cl)c(Cl)c1C(=O)Nc1cccc(C(F)(F)F)c1 | >100 µM
COc1cc(Cc2cnc(N)nc2N)c2c(c1OC)OC=CC2 | 11.5 µM
O=C1OC2(c3ccccc31)c1ccc(O)c(O)c1Oc1c2ccc(O)c1O | 228 µM
Nc1nc(N)c2cc(NC3c4ccccc4C=Cc4ccccc43)ccc2n1 | 13 µM
Nc1ncc(Cc2ccc(OCc3ccccc3)cc2)c(N)n1 | 16 µM
COc1cc(OC)c(-c2nc3nc(N)nc(N)c3[nH]2)cc1OC | >22 µM